Data as given in PMC10893061, “Novel 2,5-Diketopiperazines with In Vitro Activities against Protozoan Parasites of Tropical Diseases” (Pharmaceuticals, 2024).
Several values for one entry are separate records, joined by “and”; a condition that tells them apart may be missing. Equal values may be shown once.

Assays:
[1] = tested on: Leishmania infantum (MHOM/BR/1974/PP75) in THP-1 macrophages; assay: Anti-Leishmania infantum activity assay (infected THP-1 macrophages, red fluorescence); assay type: cell-based; details: CC50 (THP-1)/IC50 (L. infantum)
Method: Their half-maximum cytotoxic concentrations (CC50) and their selectivity indices (SI), obtained as the ratio of the cytotoxic concentration against the bioactive concentration are shown in Table 2. Theoretically, the higher the SI value, the greater the effectiveness for the target and the lower the toxicity of the compound, characterizing a potentially safe and selective drug.
Cells derived from the human monocytic strain THP-1 were cultured in complete Rowell Park Memorial Institute (RPMI)-1640 medium (supplemented with 10% fetal bovine serum, 100 U/mL penicillin, and 100 μg/mL streptomycin). Monocytes were differentiated into macrophages by the addition of 20 ng/mL phorbol myristate acetate (PMA). […] The IC50 values were determined by non-linear regression using a variable slope model (log[concentration] vs. growth inhibition) with the GraphPad Prism v8.2.0 (Boston, MA, USA) software. Controls with uninfected cells, untreated infected cells, infected cells treated with amphotericin B at 0.25 μM (positive control) or DMSO 1% were used. Quadruplicates were run in the same plate, and the experiments were repeated at least once.

[2] = tested on: P. falciparum chloroquine-resistant and mefloquine-sensitive W2 clone; assay: Anti-Plasmodium falciparum activity assay (SYBR, erythrocytic asexual stages); assay type: cell-based; details: CC50 (BGM)/IC50 (P. falciparum)
Method: In vitro assay with P. falciparum culture were performed as described previously. […] The activity was measured using the SYBR assay with the parasite suspension (0.5% parasitemia and 2% hematocrit) with minor modifications. The test compounds, in serial dilutions, were incubated in “U” bottom 96-wells plates. After 48 h at 37 °C, the culture supernatant was removed and replaced by 100 µL of lysis buffer solution [Tris (20 mM; pH 7.5), EDTA (5 mM), saponin (0.008%; wt/vol), and Triton X 100 (0.08%; vol/vol)] followed by addition of 0.2 µL/mL SYBR Safe (Sigma-Aldrich, Carlsbad, CA, USA). The plate content was transferred to a flat bottom plate and incubated in the dark for 30 min. The plate was read in a fluorometer (Synergy H4 Hibrid Reader, Biotek) with excitation at 485 nm and 535 nm of emission. In all tests, the compound activities were expressed by the 50% inhibitory concentration of the parasite growth (IC50) when compared to the drug-free controls and estimated using the curve-fitting software Origin 8.0 (OriginLab Corporation, Northampton, MA, USA).

Structure (SMILES) | SI [1] | SI [2]
C[C@@H]1[C@H](O)[C@@H](C)/C=C/C=C/C=C/C=C/C=C/C=C/C=C/[C@H](O[C@@H]2O[C@H](C)[C@@H](O)[C@H](N)[C@@H]2O)C[C@@H]2O[C@](O)(C[C@@H](O)C[C@@H](O)[C@H](O)CC[C@@H](O)C[C@@H](O)CC(=O)O[C@H]1C)C[C@H](O)[C@H]2C(=O)O [Amphotericin B, reference compound] | 1610 | 
CC(=O)Nc1ccc(C2C(=O)N(c3ccc(Cl)cc3)CC(=O)N2c2ccccc2)cc1 (centres unmarked) [Compound 7] | > 40 and 42 | 
O=C1C(c2ccc(O)cc2)N(c2ccccc2)C(=O)CN1c1ccc(Cl)cc1 (centres unmarked) [Compound 14] | > 50 and > 40 and 74 | 
O=C1C(c2ccccc2F)N(c2ccc(Cl)cc2)C(=O)CN1c1ccc(Cl)cc1 (centres unmarked) [Compound 17] |  | > 10 and 15
O=C1C(c2ccccc2F)N(c2ccc(Br)cc2)C(=O)CN1c1ccc(Cl)cc1 (centres unmarked) [Compound 19] |  | > 10 and 20
